Pooled drug test results. Numbers come from NIAID ChemDB, via PubChem.

Shared fields: tests on isolated targets

a–b is a range or a potency band.

structure	target	measure	strain	tested at	species	read by	value
O=C(O)CCC(=O)N[C@H](C(=O)N[C@@H](CCC(=O)O)C(=O)N[C@@H](Cc1ccc2ccccc2c1)C(=O)N[C@@H](CS)C(=O)O)C1CCCCC1	Nonstructural protein 3 NTPase/helicase	inhibition	-	16.7 µM	Hepatitis C virus	-	90%
CC(C)CNc1cccnc1N1CCN(C(=O)c2ccc(C(=O)NC3CC3)cn2)CC1	Reverse transcriptase	IC50	-	-	Hepatitis B virus	-	0.002 µg/mL
CCOC(=O)c1c(S(=O)(=O)Nc2cc(-c3ccccc3)sc2C(=O)O)c(-c2ccccc2)n(-c2ccccc2)c1C	NS3 ATPase	IC50	-	-	Hepatitis C virus	-	<5 µM
O=C(/C=C/c1ccc(O)c(O)c1)O[C@H]1[C@H](O)C[C@](O)(C(=O)O)C[C@H]1OC(=O)/C=C/c1ccc(O)c(O)c1	HBeAg	inhibition	HepG 2.2.15	10 µg/mL	Hepatitis B virus	ELISA	9.92%
CCCN(CCC)Cc1ccc2cc(-c3nc4cc(C(=O)O)ccc4n3C3CCCCC3)ccc2n1	NS5B polymerase	inhibition	-	33 µM	Hepatitis C virus	-	87.01%
C=CC1CC1(NC(=O)[C@@H]1C[C@@H](OC(=O)N2CCOCC2)CN1C(=O)[C@@H](NC(=O)OC(C)(C)C)C(C)(C)C)C(=O)NS(=O)(=O)C1CC1	NS3/NS4A protease	IC50	BMS/H77C/J416S	-	Hepatitis C virus	-	0.1–1 µM
O=C(O)c1ccc2c(c1)nc(-c1ccc3nc(-c4cc5c(cc4-c4ccc(Cl)cc4)OCCCO5)ccc3c1)n2C1CCCCC1	NS5B polymerase	inhibition	-	33 µM	Hepatitis C virus	-	102%
CC(C)C[C@H](NC(=O)[C@H](CCC(=O)O)NC(=O)[C@@H](NC(=O)CCC(=O)O)C1CCCCC1)C(=O)NC1(C(=O)O)CC1	Nonstructural protein 3 NTPase/helicase	inhibition	-	83.5 µM	Hepatitis C virus	-	3%
O=C(Nc1ccc2[nH]ncc2c1)c1cc(NCCN2CCOCC2)c(F)cc1F	Reverse transcriptase	inhibition	-	0.01 µg/mL	Hepatitis B virus	-	45%
COc1ccc(-c2ccc(-c3ccnc4cc(C(=O)NCCNC(C)=O)nn34)cc2)cc1	RNA-dependent RNA polymerase	IC50	-	-	Hepatitis C virus	-	>10 µM
CC(C)CNc1cccnc1N1CCN(C(=O)c2ccc(C(=O)NCCO)cn2)CC1	Reverse transcriptase	IC50	-	-	Hepatitis B virus	-	0.009 µg/mL
O=C(Nc1ccc2[nH]ncc2c1)c1cc(NCCN2CCCC2)c(F)cc1F	Reverse transcriptase	IC50	-	-	Hepatitis B virus	-	0.01–0.1 µg/mL
O=C(O)CCC(=O)N[C@@H](CCC(=O)O)C(=O)N[C@@H](CCC(=O)O)C(=O)N[C@@H](CS)C(=O)O	Nonstructural protein 3 NTPase/helicase	IC50	-	-	Hepatitis C virus	-	>16.7 µM
CC[C@H](C)[C@H](NC(=O)[C@H](CC(C)C)NC(=O)[C@@H](CCC(=O)O)NC(=O)[C@H](CCC(=O)O)NC(=O)CCC(=O)O)C(=O)N[C@@H](CC1CCCCC1)C(=O)NC1(C(=O)NS(=O)(=O)c2ccccc2)CC1	HCV NS3 protease	Ki	-	-	Hepatitis C virus	-	0.0038 µM
O=C(O)c1cnn2c(C3CCCCC3)c(-c3ccc(OCc4ccccc4)cc3)cnc12	RNA-dependent RNA polymerase	IC50	-	-	Hepatitis C virus	-	1–10 µM
C=CC1CC1(NC(=O)[C@@H]1C[C@@H](OC(=O)Nc2cccc(C(F)(F)F)c2)CN1C(=O)[C@@H](NC(=O)OC(C)(C)C)C(C)(C)C)C(=O)NS(=O)(=O)C1CC1	NS3/NS4A protease	IC50	BMS/H77C/J416S	-	Hepatitis C virus	-	0.1–1 µM
CC(C)N(C(=O)C1CCC(Cl)CC1)c1cc(-c2ccccc2)sc1C(=O)O	NS3 ATPase	IC50	-	-	Hepatitis C virus	-	<5 µM
CC[C@H](C)[C@H](NC(=O)[C@H](CC(C)C)NC(=O)[C@@H](CCC(=O)O)NC(=O)CCC(=O)O)C(=O)N[C@@H](CC1CCCCC1)C(=O)N[C@@H](CS)C(=O)O	HCV NS3 protease	Ki	-	-	Hepatitis C virus	-	0.12 µM
Cc1ccc(C(=O)N(C)c2cc(-c3ccccc3)sc2C(=O)O)c(F)c1F	NS3 ATPase	IC50	-	-	Hepatitis C virus	-	<5 µM
c1ccc(COc2ccc(-c3cnc4c(-c5nn[nH]n5)cnn4c3C3CCCCC3)cc2)nc1	RNA-dependent RNA polymerase	IC50	-	-	Hepatitis C virus	-	<1 µM
O=C(NC(CO)C(=O)O)c1ccc2c(c1)nc(-c1ccc3ncccc3c1)n2C1CCCCC1	NS5B polymerase	inhibition	-	100 µM	Hepatitis C virus	-	97.54%
CC(C)Nc1cccnc1N1CCN(C(=O)c2ccc(C(=O)NCCCO)cn2)CC1	Reverse transcriptase	IC50	-	-	Hepatitis B virus	-	0.012 µg/mL
O=C(O)c1cc2nc(-c3ccc(Cl)cc3)cc(-c3ccc(F)cc3)n2n1	RNA-dependent RNA polymerase	IC50	-	-	Hepatitis C virus	-	>10 µM
NC(=O)CC[C@H](NC(=O)[C@@H](NC(=O)CCC(=O)O)C1CCCCC1)C(=O)N[C@H](C(=O)N[C@@H](CS)C(=O)O)c1ccc(-c2ccccc2)cc1	Nonstructural protein 3 NTPase/helicase	inhibition	-	16.7 µM	Hepatitis C virus	-	61%
O=C(O)c1ccc2c(c1)nc(-c1ccc3nc(-c4ccccc4)cc(Sc4ccccc4)c3c1)n2C1CCCCC1	NS5B polymerase	inhibition	-	33 µM	Hepatitis C virus	-	96.33%
CCCC(NC(=O)[C@H](CC1CCCCC1)NC(=O)[C@@H](NC(=O)[C@H](CC(C)C)NC(=O)[C@@H](CCC(=O)O)NC(=O)[C@H](CCC(=O)O)NC(=O)CCC(=O)O)[C@@H](C)CC)C(=O)C(F)(F)C(F)(F)F	HCV NS3 protease	Ki	-	-	Hepatitis C virus	-	0.12 µM
O=C(O)CCCC(=O)N[C@H](C(=O)N[C@@H](CCC(=O)O)C(=O)N[C@@H](CCC(=O)O)C(=O)NC1(C(=O)O)CC1)C(c1ccccc1)c1ccccc1	Nonstructural protein 3 NTPase/helicase	IC50	-	-	Hepatitis C virus	-	>167 µM
C=CC1CC1(NC(=O)[C@@H]1C[C@@H](OC(=O)Nc2ccc(OC)cc2[N+](=O)[O-])CN1C(=O)[C@@H](NC(=O)OC(C)(C)C)C(C)(C)C)C(=O)NS(=O)(=O)C1CC1	NS3/NS4A protease	IC50	BMS/H77C/J416S	-	Hepatitis C virus	-	<0.1 µM
O=C(O)c1cc2nc(-c3ccccc3OCc3ccccc3)cc(-c3ccc(Cl)cc3)n2n1	RNA-dependent RNA polymerase	IC50	-	-	Hepatitis C virus	-	1–10 µM
CC[C@H](C)[C@H](NC(=O)[C@H](CC(C)C)NC(=O)[C@@H](CCC(=O)O)NC(=O)[C@H](CCC(=O)O)NC(=O)CCC(=O)O)C(=O)N[C@@H](CC1CCCCC1)C(=O)NC1(C(=O)C(F)(F)C(F)(F)F)CC1	HCV NS3 protease	Ki	-	-	Hepatitis C virus	-	1.8 µM
CCC(C)[C@H](NC(=O)[C@@H](NC(=O)CCCC(=O)O)C1CCCCC1)C(=O)N[C@@H](CC1CCCCC1)C(=O)N[C@@H](CS)C(=O)O	Nonstructural protein 3 NTPase/helicase	IC50	-	-	Hepatitis C virus	-	<16.7 µM
O=C(O)c1ccc2c(c1)nc(-c1ccc3nc(-c4ccccc4[N+](=O)[O-])ccc3c1)n2C1CCCCC1	NS5B polymerase	inhibition	-	33 µM	Hepatitis C virus	-	96.61%
CCC[C@H](NC(=O)[C@H](CC1CCCCC1)NC(=O)[C@@H](NC(=O)[C@H](CC(C)C)NC(=O)[C@@H](CCC(=O)O)NC(=O)[C@H](CCC(=O)O)NC(=O)CCC(=O)O)[C@@H](C)CC)c1nn[nH]n1	HCV NS3 protease	Ki	-	-	Hepatitis C virus	-	0.156 µM
Cc1ccc(C(=O)N(C)c2cc(-c3ccccc3C)sc2C(=O)O)cc1	NS3 ATPase	IC50	-	-	Hepatitis C virus	-	<5 µM
O=C(Nc1ccc2[nH]ncc2c1)c1cc(NCCc2ccccn2)c(F)cc1F	Reverse transcriptase	IC50	-	-	Hepatitis B virus	-	0.1–1 µg/mL
O=C(O)CCCC(=O)N[C@H](C(=O)N[C@@H](CCC(=O)O)C(=O)N[C@@H](CCC(=O)O)C(=O)N[C@@H](CS)C(=O)O)C1CCCCC1	Nonstructural protein 3 NTPase/helicase	inhibition	-	16.7 µM	Hepatitis C virus	-	91%
C=CC1CC1(NC(=O)[C@@H]1C[C@@H](OC(=O)NCc2cccc(CC)c2)CN1C(=O)[C@@H](NC(=O)OC(C)(C)C)C(C)(C)C)C(=O)NS(=O)(=O)C1CC1	NS3/NS4A protease	IC50	BMS/H77C/J416S	-	Hepatitis C virus	-	<0.1 µM
C=C[C@@H]1C[C@]1(NC(=O)[C@@H]1C[C@@H]2CN1C(=O)[C@H](C(C)(C)C)NC(=O)OCC(C)(C)CCCCc1cccc3c1CN(C3)C(=O)O2)C(=O)NS(=O)(=O)c1ccc2c(c1)B(O)OC2	HCV NS3 1a	IC50	-	-	Hepatitis C virus	FRET	0.004 µM
CCc1cc2cc(-c3cnc4c(C(=O)O)cnn4c3C3CCCCC3)ccc2o1	RNA-dependent RNA polymerase	IC50	-	-	Hepatitis C virus	-	1–10 µM
CCC(NC(=O)[C@H](CC1CCCCC1)NC(=O)[C@@H](NC(=O)[C@H](CC(C)C)NC(=O)[C@@H](CCC(=O)O)NC(=O)CCC(=O)O)[C@@H](C)CC)C(=O)C(F)(F)C(F)(F)F	HCV NS3 protease	Ki	-	-	Hepatitis C virus	-	2 µM
Cc1ccc(S(=O)(=O)Nc2cc(-c3ccccc3)sc2C(=O)O)cc1C	NS3 ATPase	IC50	-	-	Hepatitis C virus	-	<5 µM
CS(=O)(=O)c1ccc(COc2ccc(-c3cnc4c(-c5nn[nH]n5)cnn4c3C3CCCCC3)cc2)cc1	RNA-dependent RNA polymerase	IC50	-	-	Hepatitis C virus	-	1–10 µM
CC(C)Nc1cccnc1N1CCN(C(=O)c2ccc(C(=O)NC3CCCC3)cn2)CC1	Reverse transcriptase	IC50	-	-	Hepatitis B virus	-	0.029 µg/mL
O=C(Nc1ccc2[nH]ncc2c1)c1cc(NCCCn2ccnc2)c(F)cc1F	Reverse transcriptase	inhibition	-	1 µg/mL	Hepatitis B virus	-	83%
C=C1[C@H](COP(=O)(O)OP(=O)(O)OP(=O)(O)O)[C@@H](O)C[C@@H]1n1cnc2c(=O)[nH]c(N)nc21	DNA polymerase	IC50	Polymerase mutant M550V	-	Hepatitis B virus	-	0.0042 µM
CN1CCN(C(=O)c2ccc3c(c2)nc(-c2cc4ccc(-c5ccccc5-c5ccccc5)nc4cc2F)n3C2CCCCC2)CC1	NS5B polymerase	inhibition	-	33 µM	Hepatitis C virus	-	76.67%
C=CC1CC1(NC(=O)[C@@H]1C[C@@H](OC(=O)Nc2cccc(Cl)c2Cl)CN1C(=O)[C@@H](NC(=O)OC(C)(C)C)C(C)(C)C)C(=O)NS(=O)(=O)C1CC1	NS3/NS4A protease	IC50	BMS/H77C/J416S	-	Hepatitis C virus	-	<0.1 µM
CC(C)(CO)NC(=O)c1ccc(C(=O)N2CCN(c3ncccc3N)CC2)nc1	Reverse transcriptase	IC50	-	-	Hepatitis B virus	-	0.038 µg/mL
O=C(O)CCC(=O)N[C@H](C(=O)N[C@@H](CCC(=O)O)C(=O)N[C@@H](CCC(=O)O)C(=O)NC1(C(=O)O)CC1)C1CCCCC1	Nonstructural protein 3 NTPase/helicase	inhibition	-	83.5 µM	Hepatitis C virus	-	31%
CC[C@H](C)[C@H](NC(=O)[C@H](CC(C)C)NC(=O)[C@@H](CCC(=O)O)NC(=O)[C@H](CCC(=O)O)NC(=O)CCC(=O)O)C(=O)N[C@@H](CC1CCCCC1)C(=O)N[C@@H](CS)C(=O)O	HCV NS3 protease	Ki	-	-	Hepatitis C virus	-	0.028 µM
O=C(O)C1C[C@@H](O)CN1C(=O)c1ccc2c(c1)nc(-c1ccc3nc(-c4ccccc4)cnc3c1)n2C1CCCCC1	NS5B polymerase	inhibition	-	100 µM	Hepatitis C virus	-	86.78%
CCNc1cccnc1N1CCN(C(=O)c2ccc(C(=O)NCCOC)cn2)CC1	Reverse transcriptase	IC50	-	-	Hepatitis B virus	-	0.049 µg/mL
C=CC1CC1(NC(=O)[C@@H]1C[C@@H](OC(=O)Nc2cc(C)ccc2-n2cccc2)CN1C(=O)[C@@H](NC(=O)OC(C)(C)C)C(C)(C)C)C(=O)NS(=O)(=O)C1CC1	NS3/NS4A protease	IC50	BMS/H77C/J416S	-	Hepatitis C virus	-	<0.1 µM
CCC(NC(=O)[C@H](CC1CCCCC1)NC(=O)[C@@H](NC(=O)[C@H](CC(C)C)NC(=O)[C@@H](CCC(=O)O)NC(=O)[C@H](CCC(=O)O)NC(=O)CCC(=O)O)[C@@H](C)CC)C(=O)C(F)(F)C(F)(F)F	HCV NS3 protease	Ki	-	-	Hepatitis C virus	-	0.081 µM
CN(C)CCNc1cc(C(=O)Nc2ccc3cn[nH]c3c2)c(F)cc1F	Reverse transcriptase	inhibition	-	0.1 µg/mL	Hepatitis B virus	-	36%
C=CC1CC1(NC(=O)[C@@H]1C[C@@H](OC(=O)Nc2ccccc2-n2nc3cc(OC)c(OC)cc3n2)CN1C(=O)[C@@H](NC(=O)OC(C)(C)C)C(C)(C)C)C(=O)NS(=O)(=O)C1CC1	NS3/NS4A protease	IC50	BMS/H77C/J416S	-	Hepatitis C virus	-	<0.1 µM
CC(C)CNC(=O)c1ccc(C(=O)N2CCN(c3ncccc3NC(C)C)CC2)nc1	Reverse transcriptase	IC50	-	-	Hepatitis B virus	-	0.002 µg/mL
CC(C)C[C@H](NC(=O)CCC(=O)O)C(=O)N[C@@H](CCC(=O)O)C(=O)N[C@@H](CCC(=O)O)C(=O)N[C@@H](CS)C(=O)O	Nonstructural protein 3 NTPase/helicase	inhibition	-	16.7 µM	Hepatitis C virus	-	82%
C=CC1CC1(NC(=O)[C@@H]1C[C@@H](OC(=O)N(CC)CC)CN1C(=O)[C@@H](NC(=O)OC(C)(C)C)C(C)(C)C)C(=O)NS(=O)(=O)C1CC1	NS3/NS4A protease	IC50	BMS/H77C/J416S	-	Hepatitis C virus	-	<0.1 µM
O=C(O)c1ccc2c(c1)nc(-c1ccc3ncc(-c4ccccc4)nc3c1)n2C1CCCCC1	NS5B polymerase	inhibition	-	100 µM	Hepatitis C virus	-	98.95%
CC(C)Nc1cccnc1N1CCN(C(=O)c2ccc(C(=O)Nc3ccccn3)cn2)CC1	Reverse transcriptase	IC50	-	-	Hepatitis B virus	-	0.085 µg/mL

Percent inhibition refers to the dose given; in toxicity tests it is the harm to the cells. ICn is the concentration giving n% inhibition. Lines come from different laboratories, so protocols vary. Blank or dashed fields: not listed here.